Construct, isoform or probe ends are uncertain for at least one entry. For some assays here: Weaker means in comparison with the reference protein, sequence or condition of that experiment. At least one verdict was read from the data and is not stated in words by the source. Tags and fusion partners may be left off the protein sequences shown.
How the values were obtained:
[1] = molecular target: T1, OneSTrEP-SsbB (Neisseria gonorrhoeae MS11) (UniProt Q5EP75); experiment: EMSA; conditions: no difference from native; EMSA: SBA buffer (10 mM NaOH, 2 mM EDTA, boric acid to pH 7.5), optional 10 mM MgCl2 and/or NaCl up to 500 mM, 4 C 15 min; recombinant protein; residues 1-143; protein details: N-terminal OneSTrEP; label: 5' Cy3; single-stranded DNA
T1 sequence (looked up): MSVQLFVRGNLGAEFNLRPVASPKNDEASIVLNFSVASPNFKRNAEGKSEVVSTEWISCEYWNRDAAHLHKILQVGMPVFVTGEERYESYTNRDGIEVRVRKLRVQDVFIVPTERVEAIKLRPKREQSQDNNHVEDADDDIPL

[2] = molecular target: T2, His-SsbB (Neisseria gonorrhoeae MS11) (UniProt Q5EP75); experiment: EMSA; conditions: lower affinity than native; EMSA: SBA buffer (10 mM NaOH, 2 mM EDTA, boric acid to pH 7.5), optional 10 mM MgCl2 and/or NaCl up to 500 mM, 4 C 15 min; recombinant protein; residues 1-143; protein details: N-terminal 10xHis; label: 5' Cy3; single-stranded DNA
T2 sequence (looked up): T1 sequence (looked up)

[3] = molecular target: T3, SsbB (native) (Neisseria gonorrhoeae MS11) (UniProt Q5EP75); experiment: EMSA (Coomassie); conditions: 1 uM tetramer, EMSA: SBA buffer (10 mM NaOH, 2 mM EDTA, boric acid to pH 7.5), optional 10 mM MgCl2 and/or NaCl up to 500 mM, 4 C 15 min, recombinant protein, residues 1-143, single-stranded DNA
T3 sequence (looked up): T1 sequence (looked up)

“TTTTTTTTTTTTTTTTTTTTTTTTTTTTTTTTTTT [Cy3-dT35]”: binds [1]; binds more weakly [2].

“TTTTTTTTTTTTTTTTTTTTTTTTTTTTTTTTTTT [dT35]”: binds ([3]; 5 uM oligo).

“TTTTTTTTTTTTTTTTTTTTTTTTTTTTTTTTTTTTTTTTTTTTTTTTTTTTTTTTTTTTTTTTTTT [dT67]”: binds ([3]; 0.25 uM oligo, one tetramer bound).

“TTTTTTTTTTTTTTTTTTTTTTTTTTTTTTTTTTTTTTTTTTTTTTTTTTTTTTTTTTTTTTTTTTTTTTTTTT [dT74]”: binds ([3]; 0.25 uM oligo, two tetramers bound).

— paper PMC3334931, “Characterization of the Single Stranded DNA Binding Protein SsbB Encoded in the Gonoccocal Genetic Island” (PLoS ONE, 2012)
